Earlier results on one molecule are cited in patent US12372525B2 (priority 2013, dated 2025).

The structures appear in SMILES notation.

The data set relates to neuraminidase. Conditions: cited from earlier work.

`CC(=O)N[C@H]1[C@H]([C@H](O)[C@H](O)CO)OC(C(=O)O)=C[C@@H]1N=C(N)N` [Zanamivir]: the “affinity compared with DANA” value was “Zanamivir, inhaled, based on DANA -Higher affinity than DANA”.
